This note sets out measurements from patent EP4349860A1, “Anti-sars-cov-2 antibodies” (Fundació Institut Hospital Del Mar D'Investigacions …, dated 2024).

Where two headings read alike, the source gives them in different places.

What all share (experiment): cell-based or functional assay
In test [1] the target is T1, SARS-CoV-2 spike protein, WH1 variant, on pseudovirus (SARS-CoV-2.SctΔ19).
For test [2], the target named is T2, SARS-CoV-2 spike protein, D614G variant, on pseudovirus.
Test [3] concerns the target T1, SARS-CoV-2 spike protein, WH1 variant, …. This is another data set of the same source.
In test [4] the target is T2, SARS-CoV-2 spike protein, D614G …. The source holds these as a separate data set.

B1: mAb17T2 (antibody, V domains shown)
VH: QVQLVQSGPEVKKPGTSVKVSCKAPVFTFSISAVQWVRQARGQRLEWIGWIVVGSGNTNYAQNFQERVTITTDMSTGTVYMELSGLRSEDTAMYYCAAPYCNRTTCYDGFDLWGQGTMVTVSS
VL: EIVLTQSPGTLSLSPGERATLSCRASQSISSNYLAWYQQKPGQAPRLLIYGASSRATGIPDRFSGSGSGTDFTLSINRLEPEDFAMYYCQHYGGLSRWTFGQGTKVEIKR
As for B1, the “IC50 (µg/ml), pseudotyped virus neutralization” value in test [1] was 0.0406 µg/mL; in test [2] it was 0.00792 µg/mL; in test [3], 0.0383 µg/mL; in test [4] it was 0.01 µg/mL. Moreover, the “IC80 (µg/ml), pseudotyped virus neutralization” value in test [1] was 0.0804 µg/mL; in test [2] it was 0.0153 µg/mL. Also, the “IC90 (µg/ml), pseudotyped virus neutralization” value turned out to be 0.12 µg/mL in test [1] and 0.0226 µg/mL in test [2].
